Source: PubChem BioAssay AID1224833 (University of Georgia, 2016)
In all, the deposit lists about 12,000 reagents; shown is an unselected part. About 5,600 of all reagents (46%) count as active. 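Active calls cover z-scores past 1 in both directions, so they include lowered as well as raised rotavirus replication.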

Aim: 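Host factors restraining rotavirus as candidate antiviral genes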 (primary screen)
Cell system: monkey MA104 kidney cells
Reagent: siRNA pool against human genes, 50 nM
Timing: 48 h knock-down before infection; read 24 h after infection
Treatment: infection with rotavirus strain RV3 two days after transfection; infectious dose for this stage not given
Measurement: 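Rotavirus antigen per well by fluorescent immunoassay, normalised to non-targeting control wells on each plate and given as a standard z-score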
Scale: z-score vs non-targeting control: higher = more rotavirus replication than with non-targeting control
Rule for the call: In these data the active calls have z-score vs non-targeting control at about -1 or lower, or at about 1 or higher
Calls: active = z-score beyond 1 either way; inactive = z-score within 1 of zero

IFI44L (interferon induced protein 44 like): z-score vs non-targeting control = -1.13; call = active
B3GNT3: z-score vs non-targeting control = -1.5; call = active
ARPP21 (cAMP regulated phosphoprotein 21): z-score vs non-targeting control = 0.133; call = inactive
FGF4 (fibroblast growth factor 4): z-score vs non-targeting control = 1.83; call = active
C16orf46 (chromosome 16 open reading frame 46): z-score vs non-targeting control = 1.11; call = active
GPKOW (G-patch domain and KOW motifs): z-score vs non-targeting control = -0.67; call = inactive
LRRC42 (leucine rich repeat containing 42): z-score vs non-targeting control = -1.73; call = active
KIF11 (kinesin family member 11): z-score vs non-targeting control = -0.564; call = inactive
LUM (lumican): z-score vs non-targeting control = -1.27; call = active
SLC39A8: z-score vs non-targeting control = -0.717; call = inactive
MTFR1 (mitochondrial fission regulator 1): z-score vs non-targeting control = -0.56; call = inactive
PCYT1B (phosphate cytidylyltransferase 1B, choline): z-score vs non-targeting control = 1.56; call = active
SP2 (Sp2 transcription factor): z-score vs non-targeting control = -3.24; call = active
DENND4C (DENN domain containing 4C): z-score vs non-targeting control = -1.49; call = active
PCYT2 (phosphate cytidylyltransferase 2, ethanolamine): z-score vs non-targeting control = -1.28; call = active
SMOC1 (SPARC related modular calcium binding 1): z-score vs non-targeting control = -0.669; call = inactive
UBASH3A (ubiquitin associated and SH3 domain containing A): z-score vs non-targeting control = -0.662; call = inactive
SLC35F6: z-score vs non-targeting control = -0.754; call = inactive
DOK1 (docking protein 1): z-score vs non-targeting control = 0.623; call = inactive
QTRT1 (queuine tRNA-ribosyltransferase catalytic subunit 1): z-score vs non-targeting control = -1.12; call = active
LUZP6 (leucine zipper protein 6): z-score vs non-targeting control = -0.1; call = inactive
AQP10 (aquaporin 10): z-score vs non-targeting control = -0.62; call = inactive
APOC3 (apolipoprotein C3): z-score vs non-targeting control = 1.39; call = active
SPACA9 (sperm acrosome associated 9): z-score vs non-targeting control = 0.415; call = inactive
TOMM6 (translocase of outer mitochondrial membrane 6): z-score vs non-targeting control = -4.16; call = active
HTN1 (histatin 1): z-score vs non-targeting control = -0.61; call = inactive
TMEM106C (transmembrane protein 106C): z-score vs non-targeting control = 1.13; call = active
RHOB (ras homolog family member B): z-score vs non-targeting control = -1.61; call = active
CNTNAP3 (contactin associated protein family member 3): z-score vs non-targeting control = 1.69; call = active
SLC12A6: z-score vs non-targeting control = -1.27; call = active
AGXT2 (alanine--glyoxylate aminotransferase 2): z-score vs non-targeting control = -2.2; call = active
ZNF227 (zinc finger protein 227): z-score vs non-targeting control = 0.318; call = inactive
SLIRP-OT1 (SLIRP overlapping transcript 1): z-score vs non-targeting control = -1.9; call = active
C10orf71 (chromosome 10 open reading frame 71): z-score vs non-targeting control = -0.899; call = inactive
TIPIN (TIMELESS interacting protein): z-score vs non-targeting control = -1.78; call = active
THRSP (thyroid hormone responsive): z-score vs non-targeting control = -2.96; call = active
ZNF536 (zinc finger protein 536): z-score vs non-targeting control = -0.777; call = inactive
HEXA (hexosaminidase subunit alpha): z-score vs non-targeting control = -0.766; call = inactive
DDIT3 (DNA damage inducible transcript 3): z-score vs non-targeting control = -1.59; call = active
COL8A1 (collagen type VIII alpha 1 chain): z-score vs non-targeting control = 1.62; call = active
MRPS22 (mitochondrial ribosomal protein S22): z-score vs non-targeting control = -1.8; call = active
ACER3 (alkaline ceramidase 3): z-score vs non-targeting control = 0.508; call = inactive
ARHGAP28 (Rho GTPase activating protein 28): z-score vs non-targeting control = 0.0047; call = inactive
HNRNPUL1 (heterogeneous nuclear ribonucleoprotein U like 1): z-score vs non-targeting control = -0.278; call = inactive
SNX17 (sorting nexin 17): z-score vs non-targeting control = -0.516; call = inactive
CUEDC2 (CUE domain containing 2): z-score vs non-targeting control = -0.0313; call = inactive
CLEC2L (C-type lectin domain family 2 member L): z-score vs non-targeting control = -2.12; call = active
